Some entries of the source have several records that differ or are many. This list holds those alone. There may be further records. Results that share an entry seem to repeat one measurement (runs, samples, wells or individuals).
Target: wild-type (T648) AcAS (Plasmodium falciparum, UniProt C6KTB4)
Experiment: AcAS activity assay (14C-acetate), wild-type
Type: biochemical
Conditions: log concentration (M) -5.0655; listed as CoA-iPanAm

Sequences of proteins named here, by UniProt entry; tags and fusion partners are left off. Residues count along the entry.
UniProt C6KTB4, 1-997: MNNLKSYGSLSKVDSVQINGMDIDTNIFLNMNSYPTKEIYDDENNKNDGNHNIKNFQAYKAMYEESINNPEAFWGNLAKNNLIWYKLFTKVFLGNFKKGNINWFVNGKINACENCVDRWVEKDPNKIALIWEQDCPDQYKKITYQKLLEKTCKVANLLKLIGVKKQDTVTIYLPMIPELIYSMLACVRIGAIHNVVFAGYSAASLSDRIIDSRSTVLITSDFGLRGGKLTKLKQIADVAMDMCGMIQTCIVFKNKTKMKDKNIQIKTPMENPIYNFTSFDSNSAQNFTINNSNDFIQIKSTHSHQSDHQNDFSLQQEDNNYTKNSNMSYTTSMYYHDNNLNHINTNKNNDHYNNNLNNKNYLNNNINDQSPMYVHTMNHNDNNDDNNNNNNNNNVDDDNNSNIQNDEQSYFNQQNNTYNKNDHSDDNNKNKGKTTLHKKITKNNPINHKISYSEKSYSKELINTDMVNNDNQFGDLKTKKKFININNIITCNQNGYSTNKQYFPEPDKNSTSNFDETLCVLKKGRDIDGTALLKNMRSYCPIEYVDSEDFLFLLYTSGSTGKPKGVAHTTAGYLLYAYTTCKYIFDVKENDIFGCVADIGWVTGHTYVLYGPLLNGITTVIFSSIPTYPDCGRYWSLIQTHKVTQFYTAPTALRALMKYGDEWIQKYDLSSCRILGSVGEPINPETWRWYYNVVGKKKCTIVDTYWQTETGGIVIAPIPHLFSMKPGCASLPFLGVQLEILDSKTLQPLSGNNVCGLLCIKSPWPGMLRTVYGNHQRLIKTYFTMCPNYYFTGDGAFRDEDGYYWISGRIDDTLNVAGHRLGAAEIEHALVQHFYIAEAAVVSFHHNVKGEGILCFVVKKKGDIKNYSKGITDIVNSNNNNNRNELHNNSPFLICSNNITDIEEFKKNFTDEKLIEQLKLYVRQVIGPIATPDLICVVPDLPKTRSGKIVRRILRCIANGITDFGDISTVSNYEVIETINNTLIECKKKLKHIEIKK

Structure (SMILES): C[C@@H](CNC(=O)[C@H](O)C(C)(C)COP(=O)(O)OP(=O)(O)OC[C@H]1O[C@@H](n2cnc3c(N)ncnc32)[C@H](O)[C@@H]1OP(=O)(O)O)NC(=O)c1cc(F)c(F)cc1F
- AcAS activity normalized to no drug control: 5.721 and 2.463

Reference: PMC9021288 (Nature Communications, 2022)
